The assay deals with adenovirus type 6 (ADV6). Kind of assay: Evaluation of anti-adenovirus activity (CRL-11516 cells infected with ADV6, anti-hexon staining). Format: cell-based. As to conditions: read-out: Anti-AdV activity EC50, ADV6 (50TCID50), 48 hours, 50% reduction of dark brown-stained cells.

This is a selection: effects in other tests are not listed, and their absence says nothing.

Usually EC50 stands for the concentration needed to bring the measured effect to its halfway point. In the case of “(cis-3-(2-amino- 6-methoxy-9H- purin-9-yl) cyclobutyl)methyl bis(S-pivaloyl-2- mercaptoethan-1- yl)phosphate”, the EC50 lay within 1 to 10 µM.

These data come from patent US12202850B2, “Cyclobutyl purine derivative or salt thereof” (FUJIFILM Corporation, priority 2018, dated 2025).
